Data source: PubChem BioAssay AID1259414 (Drosophila RNAi Screening Center, 2018)
The screen tested about 24,000 reagents; this is a random part of those with a known target gene and a result. Of all reagents, about 1,210 (5%) were called active. 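Inactive calls also include excluded dsRNAs with several or no targets, genes unexpressed in JW18, and well A1, regardless of score.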 Reagents against one gene are numbered here.

Assay: 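Fly genes that alter Wolbachia amount inside host cells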 (primary screen)
Cell system: Drosophila JW18 cells infected with Wolbachia
Reagent: long dsRNA against Drosophila genes, 0.25 µg dsRNA per well of a 384-well plate
Time to read-out: 5 days
Challenge: cells persistently infected with Wolbachia before knock-down; no added drug
Read-out: 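Imaged fluorescence in situ signal for Wolbachia 23S rRNA per DAPI-counted host cell, given as a robust z-score within each plate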
Direction: Wolbachia per cell robust z: higher = more Wolbachia per host cell than the plate typical
Active means: 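Hit when robust z is 1.5 or more, or -1.5 or less, in at least two of three replicates; excludes dsRNAs with several or no targets, genes not expressed in JW18 and well A1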

Silencing of obst-F (GeneID 40209) #1 resulted in: Wolbachia per cell robust z, rep 1 = 0.437; Wolbachia per cell robust z, rep 2 = -0.675; Wolbachia per cell robust z, rep 3 = 0.874; inactive.
Silencing of obst-F (GeneID 40209) #2 came out at: Wolbachia per cell robust z, rep 1 = -1.5; Wolbachia per cell robust z, rep 2 = -0.631; Wolbachia per cell robust z, rep 3 = -0.705; inactive.
For tapas (GeneID 37304), the values are Wolbachia per cell robust z, rep 1 = 1.15; Wolbachia per cell robust z, rep 2 = 1.3; Wolbachia per cell robust z, rep 3 = 0.0405; inactive.
With knock-down of CG11275 (GeneID 37534) the results were Wolbachia per cell robust z, rep 1 = 0.277; Wolbachia per cell robust z, rep 2 = 1.48; Wolbachia per cell robust z, rep 3 = 0.0507; inactive.
Silencing of tsu (GeneID 35924) gave: Wolbachia per cell robust z, rep 1 = 1.33; Wolbachia per cell robust z, rep 2 = 1.56; Wolbachia per cell robust z, rep 3 = -0.132; inactive.
Silencing of CG34293 (GeneID 5740555) gave: Wolbachia per cell robust z, rep 1 = 0.67; Wolbachia per cell robust z, rep 2 = -0.855; Wolbachia per cell robust z, rep 3 = -0.432; inactive.
After knock-down of CG44422 (GeneID 32063) #1, the screen gave Wolbachia per cell robust z, rep 1 = -0.00425; Wolbachia per cell robust z, rep 2 = 0.166; Wolbachia per cell robust z, rep 3 = 0.905; inactive.
CG44422 (GeneID 32063) #2 gave Wolbachia per cell robust z, rep 1 = 1.49; Wolbachia per cell robust z, rep 2 = 0.414; Wolbachia per cell robust z, rep 3 = -0.497; inactive.
CG44422 (GeneID 32063) #3 scored Wolbachia per cell robust z, rep 1 = 0.177; Wolbachia per cell robust z, rep 2 = 0.0299; Wolbachia per cell robust z, rep 3 = 0.193; inactive.
CG44422 (GeneID 32063) #4 gave Wolbachia per cell robust z, rep 1 = 0.871; Wolbachia per cell robust z, rep 2 = -0.138; Wolbachia per cell robust z, rep 3 = -0.325; inactive.
CG1265 (GeneID 38517) showed Wolbachia per cell robust z, rep 1 = 0.0894; Wolbachia per cell robust z, rep 2 = -1.78; Wolbachia per cell robust z, rep 3 = -0.502; inactive.
With knock-down of CG5727 (GeneID 34356) #1, the record shows Wolbachia per cell robust z, rep 1 = -0.911; Wolbachia per cell robust z, rep 2 = -0.349; Wolbachia per cell robust z, rep 3 = -0.0717; inactive.
CG5727 (GeneID 34356) #2 gave Wolbachia per cell robust z, rep 1 = -0.192; Wolbachia per cell robust z, rep 2 = 0.304; Wolbachia per cell robust z, rep 3 = 0.0435; inactive.
hpRNA:CR32205 (GeneID 3772102) #1 scored Wolbachia per cell robust z, rep 1 = -0.676; Wolbachia per cell robust z, rep 2 = 0.218; Wolbachia per cell robust z, rep 3 = -0.602; inactive.
hpRNA:CR32205 (GeneID 3772102) #2 gave Wolbachia per cell robust z, rep 1 = -0.764; Wolbachia per cell robust z, rep 2 = -0.934; Wolbachia per cell robust z, rep 3 = -0.759; inactive.
hpRNA:CR32205 (GeneID 3772102) #3 showed Wolbachia per cell robust z, rep 1 = -0.532; Wolbachia per cell robust z, rep 2 = 0.347; Wolbachia per cell robust z, rep 3 = 0.642; inactive.

Limited to “Wolbachia per cell robust z, rep 3” (2 entries from above):
CG44422 (GeneID 32063) #2: -0.497
CG44422 (GeneID 32063) #3: 0.193
